# Reference: the supplement of paper PMC9931576
# Human monoclonal antibodies against the spike receptor-binding domain (heavy:light variable regions). IC50 against pseudoviruses bearing the spike of naturally observed variants; lower = stronger; >10 µg/ml means not reached at the top dose. No active / inactive call. The stated detection limit is 0.0005 µg/ml; values near or below 0.001 µg/ml lie at the floor of the assay.
# B1: BD55-892 (protein)
# chain 1: QVQLVESGGGLVKPGGSLRLSCAASGFAFSDYYMSWVRQAPGKGLEWISYLSPSGNTKYYADSVKGRFSISRDNANNSVDLQMNSLRAEDTAMYYCVRDTTVEDIAAGRPRFVYWGQGTLVTVSS
# chain 2: DIQMTQSPSSLSASVGDRVTITCQASQDINNYLNWYQQKPGKAPNLLIYDASNLETGVPSRFSGSGSGTYFSFTISSLQPEDIGTYYCQQYDNLPLTFGGGTKVEIK
# B2: BD55-888 (protein)
# chain 1: QVQLVESGGGVVQPGRSLRLSCAASGFTFSSYAMHWLRQAPGKGLEWVAVISYDGSYNYYADSVKDRFTISRDNSKNTLYLQMNSLRAEDTAVYYCAREGVVATICFDYWGQGTLVTVSS
# chain 2: DIQMTQSPSSLSASVGDRVTITCRASQSISSYLNWYQLKPGKAPKLLIYAASSLQSGVPSRFSGSGSGTDFTLTISSLQPEDFATYYCQQSYTTFMYTFGQGTKLEIK
# B3: XG2v-032 (protein)
# chain 1: QVTLRESGPALVKPTQTLTLTCTFSGFSLSTSGMCVSWIRQPPGKALEWLARIDWDDDKYYSTSLKTRLTISKDTSKNQVVLTMTNMDPVDTATYYCARILGYCSSSYYYGMDVWGQGTTVTVSS
# chain 2: EIVLTQSPATLSLSPGERAILSCRASQSVSSYLAWYQQKPGQAPRLLIYGASNRATGIPARFSGSGSGTDFTLTISSLEPEDFAVYYCQHRSNWPPALTFGGGTQVEIK
# B4: BD55-905 (protein)
# chain 1: QVQLVESGGGVVQPGRSLRLSCAASGFSFSIYGMHWVRQAPGKGLEWVAVISYDGSSKYYGDSVKGRFTISRDNSKNTLYLQMNSLSADDTAIYYCAKTGYYFDSGAYYYWFDPWGQGTLVTVSS
# chain 2: EIVLTQSPGTLSLSPGERATLSCRASQSVSSNYLAWYQQKPGQAPRLLIYGASSRATGIPDRFSGSGSGTHFTLTITRLEPEDFAVYYCQHYGSSPPFTFGPGTKVDIK
# B5: BD55-97 (protein)
# chain 1: QVQLEESGPGLLRPSQTLSLTCAVSGASISSGGFYWTWIRQRPGKGLEWLGYISHTGGTYYSPSLKSRVIVSLVTSKNSFSLDVRSVTAADTAVYYCARLQAHCSASGCLPGDFGMDVWGRGTTVTVSS
# chain 2: SYELIQAPSVSVSPGQTASITCSGDELGNKYVFWYHQRPGQSPLLVIYQDSKRPSGIPERFSGSNSGNTATLTISGPRALDEGDYYCQAWDTDTVVFGGGTKLTVL
# B6: BD55-903 (protein)
# chain 1: EVQLVESGGGLVQPGGSLRLSCAASGLIVSSNYMSWVRQAPGKGLEWVSDIYSGGSTFYADSVKGRFTVSRNNSKNTLYLQMNSLRVEDTAVYYCARRYGDYHFDYWGQGTLVTVSS
# chain 2: DIQMTQSPSTLSASVGDRVTITCRASQGISRWLAWYQQKPGKAPKLLIYETSSLESGVPSRFSGSGSGTEFTLTISSLQPDDFATYYCQQRDTFGQGTKLEIK
# How the values were obtained:
# Assay in all cases: pseudovirus neutralization IC50; higher = weaker neutralization
# [1] = target: SARS-CoV-2 Omicron BA.1 spike pseudovirus
# Experimental: (§1)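 Single-round VSV luciferase pseudovirus mixed with antibody dilutions for 1 h and put on Huh-7 cells for about a day; IC50 from the dose curve.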
# [2] = target: SARS-CoV-2 Omicron BA.2 spike pseudovirus
# Experimental: as §1
# [3] = target: SARS-CoV-2 Omicron BA.2.75 spike pseudovirus
# Experimental: as §1
# [4] = target: SARS-CoV-2 Omicron BA.5 spike pseudovirus
# Experimental: as §1
# [5] = target: SARS-CoV-2 Omicron BQ.1.1 spike pseudovirus
# Experimental: as §1
# [6] = target: SARS-CoV-2 Omicron XBB spike pseudovirus
# Experimental: as §1
# [7] = target: SARS-CoV-2 early D614G spike pseudovirus
# Experimental: as §1
Binder,pseudovirus neutralization IC50 [1] [µg/mL],pseudovirus neutralization IC50 [2] [µg/mL],pseudovirus neutralization IC50 [3] [µg/mL],pseudovirus neutralization IC50 [4] [µg/mL],pseudovirus neutralization IC50 [5] [µg/mL],pseudovirus neutralization IC50 [6] [µg/mL],pseudovirus neutralization IC50 [7] [µg/mL]
B1,0.319,0.489,0.412,> 10,> 10,> 10,0.0437
B2,> 10,> 10,> 10,> 10,> 10,> 10,> 10
B3,0.0257,0.0281,0.0407,0.0716,> 10,> 10,3.18
B4,> 10,> 10,> 10,> 10,> 10,> 10,> 10
B5,> 10,> 10,> 10,> 10,> 10,> 10,> 10
B6,> 10,> 10,> 10,0.636,> 10,> 10,0.0137
